This data set deals with HIV-1, GVK4046. Briefly: HIV-1 reproduction inhibition in MT-4 cell culture (p24 ELISA and MTT cell vitality, day 4). Type of data set: cell-based. The settings on record: selective index: ratio of 50% toxic concentration to 50% effective dose, MT-4 cells. How it is done:
The HIV inhibition study includes cultivation of primary infective MT-4 line lymphoid cells over the studied compounds, the ultimate concentrations of which in the culture medium range from 0.001 µg/ml to 100 µg/ml, during one passage, within 4 days.
HIV reproduction inhibition in the sensitive cell culture is determined by the reduction in p24 virus-specific protein accumulation (according to the enzyme-linked immunosorbent assay) and by the increase in cell vitality over the drug as compared with the reference cells, on Day 4 of the cultivation, using 3-(4.5-dimethylthiazole-2-yl-)-2,5-diphenyl tetrazolium (MTT) bromide staining.
The impact of the studied compounds on HIV-1 reproduction in MT-4 cell culture is studied using a well-known technique.

The source of these data is EP2767543B1, “SALTS OF CARBAMOYL PHOSPHONIC ACID ESTERS WHICH ACT AS SELECTIVE INHIBITORS OF HUMAN IMMUNODEFICIENCY VIRUS HIV-1 PRODUCTION” (Aktsionernoe Obshcestvo "Proizvodstvenno-Kommercheskaya …, priority 2011, dated 2013).

Take `Cc1cn([C@H]2C[C@H](N=[N+]=[N-])[C@@H](COP(=O)(O)C(N)=O)O2)c(=O)[nH]c1=O` [Acid form (reference), [(2S,3S,5R)-3-azido-5-(5-methyl-2,4-deoxythymidine-1-yl)oxolan-2-yl]methyl ester of carbamoyl phosphonic acid, reference compound]: the IS was 3,250.
